# Laboratory results as given in PMC5242492.
# Construct, isoform or probe ends are uncertain for at least one entry.
# Target: SrrA (phosphorylated with acetylphosphate, SrrA~P) (UniProt A0A0H2XI68)
# Assay: EMSA
# Settings: 15-146 ng SrrA, poly(dI-dC), decreased by excess unlabeled promoter DNA; recombinant protein; residues 1-241; protein details: C-terminal poly-His (pET20b); label: biotin (one labeled primer); probe letters rebuilt from the primers and the genome
row,Sequence,binding result
1,"ACAGGTCATACCTCCCACACATGCTTTTCTTTACAAAAGTATTATATCACAGGAAAGCGCATACAGTTATTAAAAACCTAAAATTTTGTGAAAAAATTCTCAAACTTTGTGATAAATACATATTTTATTTAATTATTTCCCATGTTCTGC (double strand) [srrA promoter, 150 bp]",binds
2,"ATTTAGGCATTTAAATAGCGGAACACTTTACGGTTAGATTAGAATAATTATAAAAAAGAGAGCAAAAACACTTTACAGATTAGAATTATTATAATATAATAATTAATATAAACAAGCAAGACGTAGACAATTTTAAGGAGTGTATTAAAT (double strand) [dps promoter, 150 bp]",binds
